Share of PSTVd loop 6 variants by leaf site

Region: loop 6 of PSTVd (intermediate strain), upper and lower strand joined, each 5' to 3', the first 5 letters being the upper strand, closing pairs included. Wild type: UGACCGCGAG. Varied positions (N): UNNNCGNNNG.

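A pool of all variants was put on leaves of three Nicotiana benthamiana plants. Samples came from the inoculated region at 5 days, the leaf margin at 10 and upper systemic leaves at 12.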

Values are reads per thousand in the sample; higher means more abundant, 0 means not found.
Each value is the mean of three plants.
"Pool" is the share in the plasmid pool used as inoculum, on the same scale.
The inoculated region was read from the minus strand, the other sites from the plus strand.

CGACCGACAG (pool 0.0131) read inoculated region 0.492; leaf margin 0.0690; systemic leaves 0.
UAAACGACUG (pool 0.222) read inoculated region 0.0766; leaf margin 0; systemic leaves 0.
UAACCGGAAG (pool 0.105) read inoculated region 0.763; leaf margin 0.0691; systemic leaves 0.
UACACGAAGG (pool 0.131) read inoculated region 0.114; leaf margin 0.00773; systemic leaves 0.
UACACGUCAG (pool 0.183) read inoculated region 0.625; leaf margin 0.103; systemic leaves 0.
UACCCGUACG (pool 0.209) read inoculated region 0.0784; leaf margin 0.00773; systemic leaves 0.
UACUCGCUCG (pool 0.261) read inoculated region 0.106; leaf margin 0; systemic leaves 0.00684.
UAGCCGACAG (pool 0.196) read inoculated region 0.113; leaf margin 0.00773; systemic leaves 0.
UAGUCGCGUG (pool 0.196) read inoculated region 0.102; leaf margin 0.0169; systemic leaves 0.
UAUACGUCGG (pool 0.275) read inoculated region 0.102; leaf margin 0.0261; systemic leaves 0.
UAUACGUUAG (pool 0.745) read inoculated region 0.0958; leaf margin 0.0750; systemic leaves 0.
UAUCCCCGAG (pool 0.0131) read inoculated region 0; leaf margin 0; systemic leaves 0.
UCAACGCGUG (pool 0.157) read inoculated region 0.0719; leaf margin 0.0155; systemic leaves 0.00684.
UCAGCGGACG (pool 0.248) read inoculated region 0.560; leaf margin 0.0936; systemic leaves 0.00684.
UCCCCGAUGG (pool 0.248) read inoculated region 0.0887; leaf margin 0.109; systemic leaves 0.
UCCUCGCCGG (pool 0.170) read inoculated region 0.0780; leaf margin 0.00773; systemic leaves 0.
UCGACGUGCG (pool 0.105) read inoculated region 0.131; leaf margin 0; systemic leaves 0.
UCUCCGACCG (pool 0.301) read inoculated region 0.0723; leaf margin 0.00773; systemic leaves 0.
UCUUCGAACG (pool 0.340) read inoculated region 0.107; leaf margin 0; systemic leaves 0.
UGCGCGUCCG (pool 0.131) read inoculated region 0.0659; leaf margin 0; systemic leaves 0.
UGGCCGACGG (pool 0.235) read inoculated region 0.126; leaf margin 0.00773; systemic leaves 0.
UGGUCGUAUG (pool 0.301) read inoculated region 0.0836; leaf margin 0.0998; systemic leaves 0.
UGUACGGACG (pool 0.196) read inoculated region 0.0831; leaf margin 0; systemic leaves 0.
UUAACGUAGG (pool 0.301) read inoculated region 0.101; leaf margin 0.0184; systemic leaves 0.00684.
UUCGCGCAUG (pool 0.170) read inoculated region 0.149; leaf margin 0.00920; systemic leaves 0.
UUCGCGGAGG (pool 0.248) read inoculated region 0.0723; leaf margin 0; systemic leaves 0.
UUCUCGAUUG (pool 0.510) read inoculated region 0.0827; leaf margin 0.00773; systemic leaves 0.
UUGGCGACUG (pool 0.562) read inoculated region 0.100; leaf margin 0.00920; systemic leaves 0.
UUUACUGUCC (pool 0.0131) read inoculated region 0; leaf margin 0; systemic leaves 0.00673.
UUUCCGUAAG (pool 0.0131) read inoculated region 0.101; leaf margin 0.0155; systemic leaves 0.
UUUGCGGGAG (pool 0.144) read inoculated region 0.147; leaf margin 0; systemic leaves 0.
UUUUCGAGUG (pool 0.209) read inoculated region 0.0769; leaf margin 0; systemic leaves 0.

Excerpt, the final 3 entries:

UUUCCGUAAG (pool 0.0131): inoculated region 0.101; leaf margin 0.0155; systemic leaves 0.
UUUGCGGGAG (pool 0.144): inoculated region 0.147; leaf margin 0; systemic leaves 0.
UUUUCGAGUG (pool 0.209): inoculated region 0.0769; leaf margin 0; systemic leaves 0.

Sequences that differ at fixed positions probably stem from PCR or sequencing errors, and defective variants can be carried along by functional ones.
With 36,220-57,551 reads a sample, very low values are single reads.
Wild type was 20.7 per thousand in the pool and the most common sequence in every sample (inoculated region 195, 198, 203; leaf margin 629, 591, 734; systemic leaves 942, 870, 868).

From the data files of Wu et al. 2024, doi:10.1371/journal.ppat.1012142.